Results published in ChEMBL document CHEMBL5537111, “Structure and function of SARS-CoV and SARS-CoV-2 main proteases and their inhibition: A comprehensive review” (Eur J Med Chem, 2023).

Experiments:
[1] = molecular target: Replicase polyprotein 1ab (Severe acute respiratory syndrome coronavirus 2, UniProt P0DTD1)
[2] = test system: SARS-CoV-2; experiment: microbe, parasite or virus in culture; conditions: Severe acute respiratory syndrome coronavirus 2, Vero C1008, 72 h
[3] = test system: SARS-CoV-2; experiment: microbe, parasite or virus in culture; conditions: Severe acute respiratory syndrome coronavirus 2, VeroE6/TMPRSS2, 48 h

**Q.** How did the IC50 [1] turn out when CCCC[C@H](NC(=O)[C@@H]1[C@@H]2[C@H](CN1C(=O)[C@@H](NC(=O)NC1(CS(=O)(=O)C(C)(C)C)CCCCC1)C(C)(C)C)C2(C)C)C(=O)C(=O)NC1CC1 was run?
**A.** 2.2 µM

**Q.** With OCCN(CCO)c1nc(N2CCCCC2)c2nc(N(CCO)CCO)nc(N3CCCCC3)c2n1 [DIPYRIDAMOLE] as the compound, how does the EC50 [2] read?
**A.** 0.1 µM

**Q.** COC[C@@H](NC(=O)C1CCCC(F)(F)C1)C(=O)N[C@H](Cc1ccccc1)C(=O)C(=O)NCc1nccs1 (stereo partly drawn) [SIMNOTRELVIR] was tested. Which EC50 [3] did it give?
**A.** 0.384 µM
